Results of unrelated studies side by side (data: NIAID ChemDB).

Shared fields: tests in culture; organism: Mycobacterium tuberculosis

MIC bound: limit read from a one-dose screen.

smiles	strain or isolate	mutations	read by	measure	dose	result
CCCCCCCCCCCCCCC(Oc1ccc(OC)cc1)C(=O)O	H37Rv	-	-	MIC	-	0.1 µg/mL
CCC1Cn2cc([N+](=O)[O-])nc2O1	H37Rv	-	-	MIC	-	0.15 µg/mL
CC(=O)NC[C@H]1CN(c2ccc(-c3ccc(CNCCCF)cc3)c(F)c2)C(=O)O1	-	-	low oxygen	EC90	-	0.8 µg/mL
CCOC(=O)/N=c1\nc2ccn(C)c2c(NC(=O)OCC)s1	H37Rv	-	BACTEC	inhibition	12.5 µg/mL	14%
C[C@H]1COc2c(N3CCN(C)CC3)c(F)cc3c(=O)c(C(=O)O)cn1c23	8S	-	-	MIC	-	0.5 µg/mL
O=C(NC=Cc1ccco1)NC1CCCCCCCCCCC1	H37Rv	-	resazurin	MIC bound	-	>6.25 µg/mL
O=C(NCc1ccc(Br)cc1)c1ccc(Br)cc1O	My 331/88	-	-	MIC	-	16 µg/mL
O=C(O)c1c2n(c3cc([N+](=O)[O-])c(N4CCN(C(=O)C5COc6ccccc6O5)CC4)cc3c1=O)CS2	H37Rv	-	agar	MIC	-	5.97 µM
CCN(CC)Cn1nc(-c2cnccn2)oc1=S	H37Rv	-	-	MIC	-	0.1 µg/mL
CCCC/C=C/C(=O)N[C@@H](Cc1cc(F)cc(F)c1)C(=O)N[C@H]1COC(=O)[C@@H]2C[C@@H](C)CN2C(=O)[C@H](C)NC(=O)[C@@H]2CCCCN2C(=O)[C@@H]2CCCN2C1=O	H37Rv	-	turbidity	MIC	-	>20 µg/mL
COc1cc2c(cc1OC)CN(c1cc3c(=O)c(C(=O)O)c4n(c3cc1[N+](=O)[O-])CS4)CC2	H37Rv	MDR-TB	agar	MIC	-	0.83 µM
CC(C)=CCC/C(C)=C/CC/C(C)=C/CC/C(C)=C/CC/C(C)=C/CC/C(C)=C/CC/C(C)=C/CC/C(C)=C/CC[C@H](C)CCOP(=O)(O)C[C@@H]1N[C@H](CO)[C@@H](O)[C@@H]1O	H37Rv	-	-	MIC	-	35 µM
COC1=CC(=O)C(CC=C(C)C)=CC1=O	H37Rv	-	BACTEC	MIC bound	-	≤128 µg/mL
CN[C@@H]1[C@H](O[C@H]2[C@H](O[C@H]3[C@H](O)[C@@H](O)[C@H](N=C(N)N)[C@@H](O)[C@@H]3N=C(N)N)O[C@@H](C)[C@]2(O)C=O)O[C@@H](CO)[C@H](O)[C@H]1O	H37Rv	-	turbidity	MIC	-	3.1 µg/mL
O=P1(Cc2ccccc2)OC2CC(Cl)CC(C2)O1	H37Rv	-	BACTEC	MIC bound	-	>12.5 µg/mL
CN[C@H](CC(C)C)C(=O)N[C@H]1C(=O)N[C@@H](CC(N)=O)C(=O)N[C@H]2C(=O)N[C@H]3C(=O)N[C@H](C(=O)N[C@H](C(=O)O)c4cc(O)cc(O)c4-c4cc3ccc4O)[C@H](O)c3ccc(c(Cl)c3)Oc3cc2cc(c3O[C@@H]2O[C@H](CO)[C@@H](O)[C@H](O)[C@H]2O[C@H]2C[C@](C)(N)[C@H](O)[C@H](C)O2)Oc2ccc(cc2Cl)[C@H]1O	H37Rv	-	turbidity	MIC	-	50 µg/mL
NCC[C@H](O)C(=O)N[C@@H]1C[C@H](N)[C@@H](O[C@H]2O[C@H](CN)[C@@H](O)[C@H](O)[C@H]2O)[C@H](O)[C@H]1O[C@H]1O[C@H](CO)[C@@H](O)[C@H](N)[C@H]1O	6S	-	-	MIC	-	2.5 µg/mL
S=c1oc(-c2cnccn2)nn1CNc1ccc(Cl)cc1	H37Rv	-	-	MIC	-	0.1 µg/mL
NC(N)=S	H37Rv	-	-	MIC	-	>3290 µM
CC(C)(C)C/C(O)=C/c1nc2ccccc2nc1/C=C(\O)CC(C)(C)C	-	-	-	inhibition	6.25 µg/mL	7%
Cl.O=C1CSC2(CCN(CCCN3c4ccccc4Sc4ccc(Cl)cc43)CC2)N1	H37Rv	-	BACTEC	MIC bound	-	≤12.5 µg/mL
COC(=O)c1ccc(NC(=O)C(Cl)Cl)cc1S(=O)(=O)NC(=O)Nc1nccc(C)n1	H37Rv	-	-	MIC	-	20 µg/mL
Oc1cc(Cl)ccc1C(=S)NCc1ccc(Cl)c(Cl)c1	My 331/88	-	-	MIC	-	2 µg/mL
O=[N+]([O-])c1ccc2[nH]c(=S)[nH]c2c1	H37Rv	-	resazurin	MIC bound	-	>6.25 µg/mL
CN[C@@H]1[C@@H](O)[C@@H](O[C@@H]2[C@@H](O)[C@H](O[C@H]3O[C@H](CN)CC[C@H]3N)[C@@H](N)C[C@H]2N)OC[C@]1(C)O	H37Rv	-	turbidity	MIC	-	3.1 µg/mL
NC[C@H]1OB2OCCOC3C=CC(c4cccs4)=C1C23	H37Rv	-	resazurin / fluorescence	EC50	-	40.1 µM
CN[C@@H]1[C@H](O[C@H]2[C@H](O[C@H]3[C@H](O)[C@@H](O)[C@H](N=C(N)N)[C@@H](O)[C@@H]3N=C(N)N)O[C@@H](C)[C@]2(O)C=O)O[C@@H](CO)[C@H](O)[C@H]1O	TN3187 (W1)	-	-	MIC	-	>2 µg/mL
COc1nc(N)c(NC2OCC(O)C(O)C2O)c(=O)n1C	H37Rv	-	BACTEC	inhibition	12.5 µg/mL	7%
COc1cc(Cc2cnc(/N=C3\C(=O)N(CN4CCN(c5cccc(C(F)(F)F)c5)CC4)c4ccc(C)cc43)nc2N)cc(OC)c1OC	H37Rv	-	-	MIC	-	21 µg/mL
NC(=O)c1ccc(CN(C2CC2)S(=O)(=O)c2ccccc2F)cc1	Clinical isolate	Rifampicin-resistant	resazurin / fluorescence	MIC	-	5 µM
CCOC(=O)/C(C#N)=N/Nc1ccc(C(=O)OCC)c(S(=O)(=O)NC(=O)Nc2nccc(C)n2)c1	H37Rv	-	-	MIC	-	>80 µg/mL
O=C1Nc2ncnn2C1=O	H37Rv	-	BACTEC	inhibition	12.5 µg/mL	6%
O=C(O)c1c2n(c3cc([N+](=O)[O-])c(N4CCN(C(c5ccccc5)c5ccc(Cl)cc5)CC4)cc3c1=O)CS2	H37Rv	-	agar	MIC	-	5.56 µM
COc1ccc(O)c(C(=O)NCc2cccc(Cl)c2)c1	My 331/88	-	-	MIC	-	125 µg/mL
S=C(S)N1CCCCC1	RMP-R	-	-	MIC	-	1.6 µg/mL
CC[C@H]1OC(=O)[C@H](C)[C@@H](O[C@H]2C[C@@](C)(OC)[C@@H](O)[C@H](C)O2)[C@H](C)[C@@H](O[C@@H]2O[C@H](C)C[C@H](N(C)C)[C@H]2O)[C@](C)(OC)C[C@@H](C)C(=O)[C@H](C)[C@@H](O)[C@]1(C)O	H37Rv	-	turbidity	MIC	-	12.5–48 µg/mL
COc1cc(Cc2cnc(/N=C3\C(=O)N(CN4CCNCC4)c4ccc(C)cc43)nc2N)cc(OC)c1OC	H37Rv	-	-	MIC	-	24 µg/mL
O=C1N2CCNc3ccccc3C(c3ccccc3)N1CC2	H37Rv	-	BACTEC	inhibition	12.5 µg/mL	10%
CCCCCCCCCCC(C(=O)O)S(=O)(=O)c1ccc(Cl)cc1	H37Rv	-	-	MIC	-	0.1 µg/mL
COC(=O)c1ccc(Cl)cc1S(=O)(=O)NC(=O)Nc1nccc(C)n1	H37Rv	-	-	MIC	-	40 µg/mL
Cc1cc(NS(=O)(=O)c2ccc(N)cc2)no1	H37Rv	-	turbidity	MIC	-	200 µg/mL
COc1ccccc1N=Nc1c(-c2cccs2)nn(C(=S)SC)c1C(F)(F)F	H37Rv	-	BACTEC	MIC bound	-	≤128 µg/mL
CC(C)(C)OC(=O)NC1C2CN(c3cc4c(=O)c(C(=O)O)c5n(c4cc3F)CS5)CC21	H37Rv	-	agar	MIC	-	0.87 µM
CCC[C@@H]1C[C@@H](C(=O)N[C@@H]([C@H]2O[C@H](SC)[C@H](O)[C@@H](O)[C@H]2O)[C@@H](C)O)N(C)C1	H37Rv	-	turbidity	MIC	-	>200 µg/mL
O=[N+]([O-])c1ccc2nc(/C=C(\O)c3ccccc3)c(/C=C(\O)c3ccccc3)nc2c1	-	-	-	inhibition	6.25 µg/mL	7%
COC12CC(=O)C(C(C)=O)=C(O)C1(C)c1c(O)c(C)c(O)c(C(C)=O)c1O2	H37Rv	-	BACTEC	inhibition	12.5 µg/mL	99%
CCOC(=O)c1ccc(Cl)cc1S(=O)(=O)NC(=O)Nc1nccc(C)n1	H37Rv	-	-	MIC	-	10 µg/mL
S=c1[nH]nc(-c2cnccn2)n1-c1ccccc1	H37Rv	-	-	MIC	-	0.1 µg/mL
CO/N=C(\C(=O)N[C@@H]1C(=O)N2C(C(=O)O)=C(COC(C)=O)CS[C@H]12)c1csc(N)n1	H37Rv	-	turbidity	MIC	-	>200 µg/mL
Br.O=C1N=NC2NC=CN3C=CC=C1C23	H37Rv	-	BACTEC	MIC bound	-	>12.5 µg/mL
CCCCCCCCCCC(Oc1ccc(C)cc1)C(=O)O	H37Rv	-	-	MIC	-	1 µg/mL
Cc1ccc(O)c(C(=O)NCc2ccc(C(C)(C)C)cc2)c1	My 331/88	-	-	MIC	-	32 µg/mL
CCOC(=O)c1ccc(NC(=O)C(Cl)Cl)cc1S(=O)(=O)NC(=O)Nc1nccc(C)n1	H37Rv	-	-	MIC	-	80 µg/mL
O=[n+]1c2c(n([O-])c3ccccc31)-c1cccc3cccc-2c13	H37Rv	-	resazurin	inhibition	6.25 µg/mL	11%
Cc1ccnc2c1N(C(=O)CNNC(=O)c1ccncc1)C(=O)c1cccnc1N2C1CC1	H37Rv (ATCC 27294)	-	BACTEC	EC50	-	90 µg/mL
NNC(=O)c1ccncc1	H37Rv	-	-	MIC	-	0.3 µg/mL
O=C(O)c1cn2c(n1)CN(c1cc3c(=O)c(C(=O)O)c4n(c3cc1[N+](=O)[O-])CS4)CC2	H37Rv	MDR-TB	agar	MIC	-	0.09 µM
COc1cc(Cc2cnc(/N=C3\C(=O)N(CN4CCCC4)c4ccc(C)cc43)nc2N)cc(OC)c1OC	H37Rv	-	-	MIC	-	19 µg/mL
CCCNC1=C(C)C(=O)C2=C(C1=O)[C@H](COC(N)=O)[C@]1(OC)[C@@H]3N[C@@H]3CN21	H37Rv	-	BACTEC	MIC	-	1.6 µg/mL
CCCCCCCCCCCCCCC(Oc1ccccc1)C(=O)O	H37Rv	-	-	MIC	-	10 µg/mL
CCOc1ccc(-n2c(O)c(N=Nc3ccccc3OC)sc2=S)cc1	H37Rv	-	BACTEC	MIC	-	≥12.8 µg/mL
O=C(O)c1c2n(c3cc([N+](=O)[O-])c(N4CCC(n5c(=O)[nH]c6ccc(Cl)cc65)CC4)cc3c1=O)CS2	H37Rv	MDR-TB	agar	MIC	-	0.36 µM
CCCCCCCCCCCCCCC(Oc1ccc(Cl)c(Cl)c1)C(=O)O	H37Rv	-	-	MIC	-	1 µg/mL
CO[C@H]1/C=C/O[C@@]2(C)Oc3c(C)c(O)c4c(c3C2=O)C(=O)C=C(NC(=O)/C(C)=C\C=C\[C@H](C)[C@H]2OC(C)(C)O[C@@H]([C@@H](C)[C@H](OC(C)=O)[C@@H]1C)[C@@H]2C)C4=O	H37Rv	-	BACTEC	inhibition	12.5 µg/mL	100%
Cc1ccnc2c1N(C(=O)CN1CCN(c3cc4c(cc3F)c(=O)c(C(=O)O)cn4C3CC3)CC1)C(=O)c1cccnc1N2C1CC1	H37Rv (ATCC 27294)	-	BACTEC	EC50	-	100 µg/mL
CCOC(=O)c1c(C)[nH]c(-c2csc(C)n2)c1C	H37Rv	-	BACTEC	inhibition	12.5 µg/mL	17%
CCCCCCCCCCCCCCC(Oc1cccc(C)c1)C(=O)O	H37Rv	-	-	MIC	-	10 µg/mL
CCOC(=O)c1ccc(Cl)cc1S(=O)(=O)NC(=O)Nc1nccc(OC)n1	H37Rv	-	-	MIC	-	>80 µg/mL
CCCCCCCCCCCCCCC(Oc1ccccc1C)C(=O)O	H37Rv	-	-	MIC	-	1 µg/mL
CCn1cc(C(=O)O)c(=O)c2c(F)c(N3CCN(CN4C(=O)/C(=N\c5ncc(Cc6cc(OC)c(OC)c(OC)c6)c(N)n5)c5cc(C)ccc54)C(C)C3)c(F)cc21	H37Rv	-	-	MIC	-	100 µg/mL
CC1CN(c2cc3c(=O)c(C(=O)O)c4n(c3cc2F)CS4)CC(C)O1	H37Rv	-	agar	MIC	-	4.28 µM
O/C(=C\c1nc2ccccc2nc1/C=C(\O)c1ccccc1)c1ccccc1	-	-	-	MIC	-	>6.25 µg/mL
O=C(CSC1CCc2ccccc21)N/N=C/c1ccccc1O	H37Rv	-	BACTEC	MIC bound	-	>12.5 µg/mL
Cc1ccc(O)c(C(=S)NCc2ccccc2)c1	My 331/88	-	-	MIC	-	0.5 µg/mL
CC(N=c1cc2n(-c3ccc(Cl)cc3)c3ccccc3nc-2cc1Nc1ccc(Cl)cc1)c1ccccc1	H37Rv	-	BACTEC	inhibition	12.5 µg/mL	100%
Cc1ccc(CNC(=O)c2cc(C)ccc2O)cc1	My 331/88	-	-	MIC	-	125 µg/mL

Again, the opening 10 rows:

smiles,strain or isolate,mutations,read by,measure,dose,result
CCCCCCCCCCCCCCC(Oc1ccc(OC)cc1)C(=O)O,H37Rv,-,-,MIC,-,0.1 µg/mL
CCC1Cn2cc([N+](=O)[O-])nc2O1,H37Rv,-,-,MIC,-,0.15 µg/mL
CC(=O)NC[C@H]1CN(c2ccc(-c3ccc(CNCCCF)cc3)c(F)c2)C(=O)O1,-,-,low oxygen,EC90,-,0.8 µg/mL
CCOC(=O)/N=c1\nc2ccn(C)c2c(NC(=O)OCC)s1,H37Rv,-,BACTEC,inhibition,12.5 µg/mL,14%
C[C@H]1COc2c(N3CCN(C)CC3)c(F)cc3c(=O)c(C(=O)O)cn1c23,8S,-,-,MIC,-,0.5 µg/mL
O=C(NC=Cc1ccco1)NC1CCCCCCCCCCC1,H37Rv,-,resazurin,MIC bound,-,>6.25 µg/mL
O=C(NCc1ccc(Br)cc1)c1ccc(Br)cc1O,My 331/88,-,-,MIC,-,16 µg/mL
O=C(O)c1c2n(c3cc([N+](=O)[O-])c(N4CCN(C(=O)C5COc6ccccc6O5)CC4)cc3c1=O)CS2,H37Rv,-,agar,MIC,-,5.97 µM
CCN(CC)Cn1nc(-c2cnccn2)oc1=S,H37Rv,-,-,MIC,-,0.1 µg/mL
CCCC/C=C/C(=O)N[C@@H](Cc1cc(F)cc(F)c1)C(=O)N[C@H]1COC(=O)[C@@H]2C[C@@H](C)CN2C(=O)[C@H](C)NC(=O)[C@@H]2CCCCN2C(=O)[C@@H]2CCCN2C1=O,H37Rv,-,turbidity,MIC,-,>20 µg/mL

Inhibition is in % at the dose shown (toxicity tests: loss of growth or viability). Conditions beyond the fields shown may differ between rows. Blank or dashed fields: not listed here. a–b is a range or a potency band. ECn is the concentration giving n% inhibition of infection, replication or growth.